Results on 19 molecules are retold here after US20200147199A1 (ROCKEFELLER UNIVERSITY, published 2020).

T1: DENV1 EDIII, polyhistidine-AviTag, produced in HEK-293-6E cells (DENV1)
T1 construct: also called EDIII of DENV1
T1 chain: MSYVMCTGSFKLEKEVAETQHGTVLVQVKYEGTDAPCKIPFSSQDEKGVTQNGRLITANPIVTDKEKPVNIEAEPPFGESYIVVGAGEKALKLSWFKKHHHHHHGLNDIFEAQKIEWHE

T2: WNV EDIII, polyhistidine-AviTag (WNV)
T2 chain: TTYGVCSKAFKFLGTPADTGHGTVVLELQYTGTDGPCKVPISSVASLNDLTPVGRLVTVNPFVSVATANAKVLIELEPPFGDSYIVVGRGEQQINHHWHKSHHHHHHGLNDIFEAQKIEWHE

B1: Z013 (MEX18_84) (antibody, V domains shown)
VH: EVQLLESGGGLVQPGGSLRLSCAASGFTFTSYAMNWVRQAPGKGLEWVSGIGGRGAIAGDGSIYYADSVKGRFTISRDNSKNIVYLQMNGLRVEDTAVYYCAKDRVAFDGFHVWGQGTLVTVSS
VL: DIQMTQSPPTLSASVGDRVTITCRASQSISSWLAWYQQKPGKAPKLLIYKASSLESGVPSRFSGSGSGTEFSLTISSLQPEDFATYYCQQYNSYPWTFGQGTKVEIK
B2: Z050 (BRA138_28) (antibody, V domains shown)
VH: QVQLVQSGAEVKKPGSSVKVSCKAPGGTFSRYSIAWVRQAPGQGLEWMGGINPTFTTPNYAQKFQGRVTITADESTNTAYLDLSSLRSEDTAVYYCARFRYYYESGGYSDASPYYLDYWGQGTLVTVSS
VL: EIVLTQSPATLSLSPGERVTLSCRASQSVSSYLAWYQQKPGQAPRLLIYDASNRATGIPARFTGSGSGTDFTLTISSLEPEDFAVYYCQQRSNWPLTFGGGTKVEIK
B3: Z007 (MEX105_50) (antibody, V domains shown)
VH: EVQLLESGGGLVRPGGSLRLSCTASGFTFRRYAMAWVRQAPGKGLEWVSLIYDGDDSTYYAKSVKGRFAISRDNSKNTLSLQMNSLRAEDTAVYYCVKDRDNGWSSIVDWGQGTLVTVSS
VL: DIQMTQSPSTLSASVGDRVTITCRASHSISGWLAWYQQKPGKAPKLLIYQASILESGVPSRFSGSGSGTEFTLTIGSLQPEDFATYFCQQYSTFWTFGQGTKVEIK
B4: Z009 (MEX105_64) (antibody, V domains shown)
VH: B3 VH with D53N, K62E, A69T, I70V, K76Q, V93I, K98R
VL: B3 VL with H27R, S28T, S30G, G31S, S56G, G66V, G76R
B5: Z008 (MEX105_60) (antibody, V domains shown)
VH: B3 VH with Y32F, Y52W, D53N, K62E, K65R, A69T, K76H, N84R, V93I
VL: B3 VL with H27Q, S28T, S30G, G31N, I53V, G76S
B6: Z057 (MEX84_p4-54) (antibody, V domains shown)
VH: EVQLVQSGAEVKRPGASVKVSCKASGYTFADYYIHWVRQAPGLGLEWMGWINPKTGFSHYEQTFQGRVTMARDTSIPAAYMELSSLKSDDTAIYYCARGGRINVAEALRYWGQGSLVTVSS
VL: DIQMTQSPSTLSTFVGDRVTITCRASQTIGDWLAWYQQKPGKAPKLLISKATRLESGVPSRFSGSGSETEFSLTINSLQPDDVAAYYCQQYMSYPWTFGQGTKLEIK
B7: Z016 (MEX84_p2-55) (antibody, V domains shown)
VH: QVQLVQSGAEVKKPGASVKLSCKASGYTFTSYYVHWVRQAPGQGLEWMGIINPGNNFVSFAQNFYDRATMTRDTSTNTVYMELTNLQSEDTAVYYCARTLVAPSAQSMYYFDFWGQGTLVTVSS
VL: EIVLTQSPGTLSLSPGERGTLSCRASQYITTGHFAWYQQKPGRAPRLLIYGASVRATGVPDRFSGSGAETDFTLTISRLDPEDVGVYYCQQYGSSPVTFGPGTKVDIK
B8: Z059 (MEX84_p4-34) (antibody, V domains shown)
VH: EVQLVQSGAEVKTPGSSVKVSCKTSGGTFSNFAITWVRQAPGQGLEWMGGIIPLFGITNYTQKFQGRVTITTDESKTTAYMDLSGLRSEDTAVYFCARGRDSSGRLLDHWGQGTLVTVSS
VL: EIVMTQSPATLSVSPGERATLSCRASQTVNRNLAWYQQKPGQAPRLLIYAASARATGVPARFSGSGSGTEFTLTISSLQSEDFVVYYCQQYNNWPPLTFGGGTKLEIK
B9: Z052 (BRA138_62) (antibody, V domains shown)
VH: QVQLQESGPGLVKPSQTLSLTCTVSGGSITGGVYYWNWIRHHPGKGLEWIGYMFYSGDTDYNPSLRSRVTISGDTSKNKFSLNLNSVTAADTAVYYCARAGFDYGSPVSAFDIWGQGTLVTVSS
VL: EIVLTQSPATLSLSPGERATLSCRASQSVSSTYLVWYQQKPGQAPRLLIYGASSRATGIPDRFSGSGSGTDFTLTISRLEPEDFAVYFCQQYAHSPRGYTFGQGTKLEIK
B10: Z005 (MEX18_13) (antibody, V domains shown)
VH: EVQLLESGGGLVQPGGSLRLSCAASGFTFSSYAMSWVRQAPGKGLEWVSSFSGIDDSTWYADSVKGRFTISRDNSKSTLYLQMNSLRAEDTAVYYCAKDRLVRGFAEVLDYWGRGTLVTVSS
VL: DIQMTQSPSSLSASVGDRVTITCRASQDISKYLAWYQQRPGKVPNLLIYTASTLQSGVPSRFSGSGSGTHFTLTISSLQPEDVATYYCQKYNSVPWTFGQGTKVEIK
B11: Z056 (MEX84_p2-94) (antibody, V domains shown)
VH: EVQLVQSGAEVKKPGASVKVSCKASGNTFMGYYFHWVRQAPGQGLEWMGWINPNSGHANIAQTFQGRVTMTRDPSITTAYMELSRLRSDDTAVFYCARGGMLGQLWALDNWGQGTLVTVSS
VL: DIQMTQSPSTLSASVGDRVTITCRASQSISHWLAWYQQRPGEAPKLLIYQASTLESGVPSRFSGSGSGTEFTLSISSLQPDDFATYYCQQYQSSPYTFGQGTKLEIK
B12: Z055 (MEX84_p4-61) (antibody, V domains shown)
VH: EVQLVQSGAEVKKPGASVKVSCKASGYTFSGYYIHWLRQAPGQGLEWMGWINSNSGGADSGPRFHGRVTMTRDTSINTAYLELTNLRSDDTAVYYCARRTYYDTRFPYWYFDLWGRGTLVTVSS
VL: AIRMTQSPSSLSASVGDRVTITCRASQDIGSYLNWYQQKPGKAPNVLISAASTLQSGVPSRISGIGSGTDFTLTISSLQPEDFATYYCQQSLSAPYTFGQGTKLEIK
B13: Z002 (MEX18_27) (antibody, V domains shown)
VH: EVQLLESGGGLVQPGGSLRLSCATSGFTFSTYAMSWVRQAPGKGLEWVSSFSGVDDSTYYAESVKGRFTISRDNSKNTVYLQMTRLRAEDTAVYYCAKDRGPRGVGELFDSWGQGTLVTVSS
VL: DIQMTQSPSTLSASVGDRVTMTCRASQSINRWLAWYQQKPGKAPKLLIYTTSTLKSGVPSRFSGSGSGTEFTLTISSLQPDDFATYYCQHFHSVPWTFGQGTKVEIK
B14: Z011 (MEX105_15) (antibody, V domains shown)
VH: EVQLLESGGGLVQPGGSLRLSCAASGFTFRTYAMSWVRQPPGKGLEWVSSISAREDSTYFAASVRGRFTISRDNSKNTLYLQMNNLRAEDTALYYCAKDRLQLGVGELYESWGQGTLVTVSS
VL: B1 VL with P9S, S28N, S30N, K50M, E55Q, S72T, I75V, E81D, Q90H, N92H
B15: Z003 (MEX18_58) (antibody, V domains shown)
VH: EVQLLESGGGLVQPGGSLRLSCATSGFTFTTFAMSWVRQAPGKGLEWVSSISGADDSTYYAASVKGRFTISRDNSRSTLFLQMNSLRAEDTAVYYCAKDRGPRGVGELFDSWGQGTLVTVSS
VL: B13 VL with M21I, N30S, R31K, K45R, H92F
B16: Z034 (BRA112_09) (antibody, V domains shown)
VH: EVQLLESGGGLAQPGGSLRLSCETSGFTFRSYGMGWVRQAPGKGLEWVSSIYISGDSTYYAASVKGRFTISRDNSKSTLYLQMDRLTAEDTAVYYCVRDRIQGGFGELYRYWGQGTLVTVSS
VL: B13 VL with I29V, R31K, T50E, T53I, K55E, P59S, F91Y, S93G, V94Y
B17: Z053 (BRA138_65) (antibody, V domains shown)
VH: QLQLQESGPGLVKPSETLSLTCTVSGGSISSYNYYWGWIRQPPGKGLEFIGSIYYTGSTYYNPSLRSRVTISVDTSKNQFSLKLTSVTAADTAVYYCARHGPGMGHNWYFDLWGRGTLVTVSS
VL: EIVLTQSPATLSLSPGERATLSCRASQSISSYLAWYQQKPGQAPRLLIYDASNRAPGIPARFSGSGSGTDFTLTISSLEPEDFAVYYCQQRSTWLTFGGGTKVEIK
B18: Z017 (MEX84_p2-58) (antibody, V domains shown)
VH: QVQLVQSGAGMRKPGASVKVSCKASGYSFNDYYIHWVRQAPGQGLEWMGWINPKSGFTNYAQRFQGRVTMTGDTSNSVAYMELTRLTSDDTAVYYCARGGRINAPLGFDPWGQGTLVTVSS
VL: EIVLTQSPDTLSLSPGETATLSCRASQSIGSISLGWYQQKFGQAPRLLIYGASTRATGTPDRFSGSGSETDFTLTISRLEPEDSAVYYCQQYVSSPLRFGGGTKVEIK
B19: Z036 (BRA112_91) (antibody, V domains shown)
VH: EVQLLESGGDLVQPGGSLRLSCAASGFTFSTYGMAWVRQAPGKGLEWLSSISSVDDSKYYAASVKGRFTISRDNSRNTLYLHMNSLRVDDTAVYYCAKDRIPHGLGELYANWGQGTLVTVSS
VL: DIQMTQSPSTLSASVGDRVTITCRASQSISGWLAWYQQKPGKAPRLLMHKASNLYSGVPSRFSGSGSGTEFTLTISSLQPDDFATYYCQHYHSYPYTFGQGTKVEIK

Residue numbers refer to the chain shown, from its start.

One assay concerns the target T1, DENV1 EDIII, polyhistidine-AviTag, …. In words: cross-reactivity ELISA. (In general: In an ELISA, binding on a coated surface is turned into a signal by an enzyme label.)
In the case of B1, the binding result is given as “binds”. On to B2, for which the binding result was “no binding (tested: 10 µg/ml)”. For B3, the binding result was “binds”.

With B4, the binding result is “binds”.

Turning to B5, the binding result is listed as “binds”.

Take B6: the binding result is given as “no binding (tested: 10 µg/ml)”. B7: the binding result is “no binding (tested: 10 µg/ml)”. The same measure, in the same setting: next, B8: “no binding (tested: 10 µg/ml)”; B9: “no binding (tested: 10 µg/ml)”. Take B10: the binding result was “binds”.

On to B11, for which the binding result is “no binding (tested: 10 µg/ml)”. Same read-out and setting: the same measure for B12: “no binding (tested: 10 µg/ml)”. Same read-out and setting: next, B13: “binds”; B14: “binds”. Still for that read-out and setting: the same measure for B15: “binds”; for B16: “binds”; for B17: “no binding (tested: 10 µg/ml)”. Take B18: the binding result is reported as “no binding (tested: 10 µg/ml)”.

The target in another assay is T2, WNV EDIII, polyhistidine-AviTag. In words: cross-reactivity ELISA.
As to B1, the binding result is recorded as “no binding (tested: 10 µg/ml)”. The same measure, in the same setting: the same measure for B2: “binds”; for B3: “no binding (tested: 10 µg/ml)”; for B4: “no binding (tested: 10 µg/ml)”. On the same count and under the same terms, next, B5: “no binding (tested: 10 µg/ml)”; B6: “binds”; B7: “binds”. The same measure, in the same setting: next, B8: “binds”; B9: “binds”. With B10, the binding result is recorded as “no binding (tested: 10 µg/ml)”. Still for that read-out and setting: the same measure for B11: “binds”. Consider B12, for which the binding result is reported as “binds”.

Turning to B13, the binding result is “no binding (tested: 10 µg/ml)”. Still for that read-out and setting: next, B14: “no binding (tested: 10 µg/ml)”; B15: “no binding (tested: 10 µg/ml)”; B16: “no binding (tested: 10 µg/ml)”. Still for that read-out and setting: the same measure for B17: “no binding (tested: 10 µg/ml)”; for B19: “no binding (tested: 10 µg/ml)”. Same read-out and setting: next, B18: “binds”.
